Numbering of substitutions follows the chain as printed. The list shows a part of the results. Env chains of viruses from a treatment-interruption trial, translated from the printed DNA. IC50 / IC80 of two broadly neutralizing antibodies; lower = more sensitive virus; >50 µg/ml means not reached and <0.001 µg/ml is below the lowest dose. No active / inactive call.
B1: HIV-1 Env, reservoir clone (protein)
chain: MRVMGIRKNWQGLWKWGMMLLGMLMICNATEQLWVTVYYGVPVWKEATTTLFCASDAKSYKTEAHNIWATHACVPTDPNPQEINLINVTENFNMWKNDMVEQMHEDIISLWDQSLKPCVKLTPLCVTLQCTNITITINGTDRNLTAEEREEIRNCSYNVTTELKDKKEQIYSLFYRLDITPINENQDKESRNTITKYRLINCNTSVITQACPKINFDPIPIHYCAPAGFAILKCKDKGFNGTGPCKNVSSVQCTHGIKPVVSTQLLLNGSLAEEEIVIRSENITNNAKNIIVQLVTPVNISCVRPNNNTRKSIRIGPGQSFYANNAIIGDIRQAHCNVSRSEWNNTLQKVVKKLGGLLNKTIIDFKPPSGGDPEIIMHTFNCAGEFFYCNTSGLFNSTWKKFNSTWNTTTWNNNSTQVSNGTDSNITLQCRIKQIINMWQGVGKAMYAPPIEGMITCISNITGLILTRDGARNDSQNETLRPAGGDMRDNWRSELYKYKVVRLEPLGLAPTKARRRVVEREKRAIGLGALFLGFLGAAGSTMGAASLTLTVQARQLLSGIVQQQNNLLRAIEAQQHLLQLTVWGIKQLQARVLAVENYLKDQQLLGIWGCSGKHICTTNVPWNTSWSNKSLSQIWDNMTWNDWEREINNYTGLIYSLIEESQIQQDKNEKELLELDKWASLWNWFKITKWLWYIKIFIMIVGGLIGLRIIFAVLSVVNRVRQGYSPLSFQTLLPASRGPDRPEGIEEEGGEQGRGRSIRLVNGFSALIWDDLRNLILFLYHRLRDLILIATRTVEILGHRGWEAIKYLWNLLLYWIQELKNSAISLYDTLAIAVAGWTDRIIEVGQRIGRAVFHIPRRIRQGAERALI
B2: HIV-1 Env, reservoir clone (protein)
chain: MKAKETMKNYQHLWRWGIMLLGMLMICSAASQLWVTVYYGVPVWKEATTTLFCASDAKAYDTEVHNVWATHACVPTDPNPQEVVLGNVTEDFNMWKNNMVEQMHEDIISLWDQSLKPCVKITPLCVTLNCTEYSNATSTEWGQMEKGEIKNCSFNVTTNIKNKMQEEYALFYKVDVVPIGNNSTNYRLIKCNTSAITQACPKVSFQPIPIHYCAPAGFAILKCNNKTFNGLGPCTNVSTVQCTHGIRPVVSTQLLLNGSLAEEEIVIRSENFSDNAKNIIVHLNTSIEINCARPNNNTRKSITIGPGRAFYATGSVIGNIRQAHCNISGEKWNKALKQIAIKLREQFGHNKTIIFNQSSGGDPEIVTHSFNCGGEFFYCNSTKLFNSTWHSNDTRNNTTESNETIIIPCKIKQIINLWQEVGKAIYAPPISGPIRCSSNITGLLLTRDGGNNISQTNETFRPGGGDMRDNWRSELYKYKVVKIEPLGVAPTKAKRRVVQRERRAVGTFGALFLGFLGTAGSTMGAASITLTVQARQLLSGIVQQQNNLLKAIEAQQHLLQLTVWGIKQLQARVLAVERYLKDQQLLGLWGCSGKLICTTTVPWNASWSNKSLEQIWENMTWMQWEKEIDNYTGIIYSLISESQLQQEKNEKELLELDKWASLWTWFDITNWLWYIKIFIMIVGGLIGLRIVFAVLSIVNKVRKGYSPLSFQTRLPTPRGPDRPEGIEGEGGERGRDTSIRLVDGFLALIWDDLRNLCLFSYHHLRDLILIVVRTVELLGRRGWELLKYWWSLLKYWSQELKKSAVSLFNAAAIAVAEGTDRVIEVVQRAGRGILHVPRRIRQGLERDLQ
B3: HIV-1 Env, reservoir clone (protein)
chain: B2 chain with D847A
B4: HIV-1 Env, reservoir clone (protein)
chain: MRVMGIRKNWQGLWKWGMMLLGMLMICNATEQLWVTVYYGVPVWKEATTTLFCASDAKSYKTEAHNIWATHACVPTDPNPQEINLINVTENFNMWKNDMVEQMHEDIISLWDQSLKPCVKLTPLCVTLQCTNITITINGTDRNLTAEEREEIRNCSYNVTTELKDKKEQIYSLFYRLDITPINENQGKKSRNTITKYRLINCNTSVITQACPKINFDPIPIHYCAPAGFAILKCKDKGFNGTGPCKNVSSVQCTHGIKPVVSTQLLLNGSLAEEEIVIRSENITNNAKNIIVQLVTPVNISCVRPNNNTRKSIRIGPGQSFYANNAIIGDIRQAHCNVSRSEWNNTLQKVVKKLGGLLNKTTIDFKPPSGGDPEIIMHTFNCAGEFFYCNTSGLFNSTWNTTTWNNNSTQVSNGTDSNITLQCRIKQIINMWQGVGKAMYAPPIEGMITCISNITGLILTRDGGARNDSQNETLRPAGGDMRDNWRSELYKYKVVRLEPLGLAPTKARRRVVEREKRAIGLGALFLGFLGAAGSTMGAASLTLTVQARQLLSGIVQQQNNLLRAIEAQQHLLQLTVWGIKQLQARVLAVENYLKDQQLLGIWGCSGKHICTTNVPWNTSWSNKSLSQIWDNMTWNDWEREINNYTGLIYSLIEESQIQQDKNEKELLELDKWASLWNWFKITKWLWYIKIFIMIVGGLIGLRIIFAVLSVVNRVRQGYSPLSFQTLFPASRGPDRPEGIEEEGGEQGRGRSIRLVNGFSALIWDDLRNLILFLYHRLRDLILIATRTVEILGHRGWEAIKYLWNLLLYWIQELKNSAISLYDTLAITVAGWTDRIIEVGQRIGRAVFHIPRRIRQGAERALI
B5: HIV-1 Env, reservoir clone (protein)
chain: MRVMGIRKNWQGLWKWGMMLLGMLMICNATEQLWVTVYYGVPVWKEATTTLFCASDAKSYKTEAHNIWATHACVPTDPNPQEINLINVTENFNMWENDMVEQMHEDIISLWDQSLKPCVKLTPLCVTLQCTNITITINGTDRNLTAEEREEIRNCSYNVTTELKDKKEQIYSLFYRLDITPINENQGKESRNTITKYRLINCNTSVITQACPKINFDPIPIHYCAPAGFAILKCKDKGFNGTGPCKNVSSVQCTHGIKPVVSTQLLLNGSLAEEEIVIRSENITNNAKNIIVQLVTPVNISCVRPNNNTRKSIRIGPGQSFYANNAIIGDIRQAHCNVSRSEWNNTLQKVVKKLGGLLNKTTIDFKPPSGGDPEIIMHTFNCAGEFFYCNTSGLFNSTWKKFNSTWNTTTWNNNSTQVSNGTDSNITLQCRIKQIINMWQGVGKAMYAPPIEGMITCISNITGLILTRDGGARNDSQNETLRPAGGDMRDNWRSELYKYKVVRLEPLGLAPTKARRRVVEREKRAIGLGALFLGFLGAAGSTMGAASLTLTVQARQLLSGIVQQQNNLLRAIEAQQHLLQLTVWGIKQLQARVLAVENYLKDQQLLGIWGCSGKHICTTNVPWNTSWSNKSLSQIWDNMTWNDWEREINNYTGLIYSLIEESQIQQDKNEKELLELDKWASLWNWFKITKWLWYIKIFIMIVGGLIGLRIIFAVLSVVNRVRQGYSPLSFQTLLPASRGPDRPEGIEEEGGEQGRGRSIRLVNGFSALIWDDLRNLILFLYHRLRDLILIATRTVEILGHRGWEAIKYLWNLLLYWIQELKNSAISLYDTLAIAVAGWTDRIIEVGQRIGRTVLHIPRRIRQGAERALI
B6: HIV-1 Env, reservoir clone (protein)
chain: MRVRGMPRSWRHLEKWGLLFLGLLIFCSAKENLWVTVYYGVPVWKEATTTLFCASDAKGYDKEAHNVWATHACVPTDPSPQEIFLENVTENFNMWRNDMVEQMQTDIISLWDESLKPCVKITPLCVTLNCTANITHANVSIPEMRNCSFNTTTEVRDKKQKAYALFYKLDLIQLNESKDSTEYRLINCNASTIRQACPKVSWDPIPIHYCAPAGYAILKCRDKKFNGTGPCKNVSTVQCTHGIKPVVSTQLLLNGSLAEEDIVIRSENISDNTKTIIVSLNEYVQINCTRPSNNTRKGIHVGPGQTLYATGEIIGNIRRAHCNISSTQWNKTLVQVSTKLKSLLNLTEVIFKPPAGGDLEVTMHSFNCRGEFFYCNTSKLFNNTGVLDDSYNETITLPCKIKQIINMWQEVGQAMYAPPIAGNITCNSNITGLLLTRDGGNNTKDNDTFRPGGGDMRNNWRSELYKYKVVEIEPLGVAPTRAKRQVVRRERRAGIGALFLGFLGAAGSTMGAASITLTVQARQLLSGIVQQQSNLLKAIEAQQHLLKLTVWGIKQLQARVLAVERYLKDQQLLGIWGCSGKLICTTNVPWNSSWSNKSYNEIWDNMTWIDWEREISNYSQEIYRLIEQSQNQQEKNEQELLALDKWASLWNWFDITNWLWYIRIFIIIVGGLIGLRIVFAVLTIVNRVRKGYSPLSLQTLIPSPREPDRPEGTEEGGGEQDRDRSVRLVTGFLALVWDDLRNLCLFSYRHLRNFISIAARIVDRGLRRGWETLKYLWNLIKYWGQELKNSAISLFNSTAIVVAEGTDRIIETLQIVIRAVLHIPRRIRQGFERALL

target: antibody 10-1074; experiment: neutralization IC50; higher = virus less sensitive to the antibody
Procedure: (§1)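 Pseudovirus bearing the Env chain mixed with antibody, from 50 µg/ml in fivefold dilutions, on TZM-bl reporter cells, in duplicate.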

Binder | neutralization IC50 [µg/mL]
B1 | 0.043
B2 | 0.001
B3 | < 0.001
B4 | 0.024
B5 | 0.052
B6 | 0.003

target: antibody 3BNC117; experiment: as above
Procedure: as §1

Binder | neutralization IC50 [µg/mL]
B1 | 1.24
B2 | 0.027
B3 | 0.034
B4 | 0.133
B5 | 0.384
B6 | 46.2

target: antibody 10-1074; experiment: neutralization IC80; higher = virus less sensitive to the antibody
Procedure: as §1

Binder | neutralization IC80 [µg/mL]
B1 | 0.11
B2 | 0.003
B3 | 0.006
B4 | 0.063
B5 | 0.192
B6 | 0.013

target: antibody 3BNC117; experiment: as above
Procedure: as §1

Binder | neutralization IC80 [µg/mL]
B1 | 5.16
B2 | 0.138
B3 | 0.182
B4 | 0.356
B5 | 1.04
B6 | > 50

Reference: the supplement of paper PMC12637763
